Laboratory results reported in publication PMC12167710 (Nature Biotechnology, 2024).

B1: mRBD14 (antibody, V domains shown)
VH: EVKLVESGGGLVQPGGSLSLSCAASGFTFTDYYMSWVRQPPGKALEWLGFIRNKANGYTTEYSASVKGRFTISRDNSQSILYLQMNALRAEDSATYYCARYIRTGWYFDVWGTGTTVTVSS
VL: DIVMTQSQKFMSTSVRDRVSITCKASQNVRTAVAWYQQKPGQSPKALIYLASNRHTGVPDRFTGSGSGTDFTLTISNVQSEDLADYFCLQHWNYPWTFGGGTKLEIK
B2: mRBD7 (antibody, V domains shown)
VH: QVQLKQSGAELVRPGASVKLSCKASGYTFTDYYINWVKQRPGQGLEWIARIYPGSGNTYYNEKFKGKATLTAEKSSSTAYMQLSSLTSEDSAVYFCARYPLYDYDEEDYFDYWGQGTTLTVSS
VL: DIQMTQTTSSLSASLGDRVTISCRASQDISNYLNWYQQKPDGTVKLLIYYTSRLHSGVPSRFSGSGSGTDYSLTISNLEQEDIATYFCQQGNTLPYTFGGGTKLEIK

Target: T1, receptor-binding domain (RBD) of the wild-type SARS-CoV-2 spike protein (SARS-CoV-2, UniProt P0DTC2 333-527)
T1 construct: also called SARS-CoV-2 RBD
Experiment: ELISA
Conditions: both partners purified

| Binder | EC50 |
| --- | --- |
| B1 | 240 pM |
| B2 | 620 pM |
